Tests used:
Plasmodium falciparum [1] = assay: Antimalarial activity against chloroquine-sensitive Plasmodium falciparum 3D7 by [3H]hypoxanthine uptake
Plasmodium falciparum [2] = assay: Antimalarial activity against chloroquine-resistant Plasmodium falciparum K1 by [3H]hypoxanthine uptake

SMILES | IC50 (Plasmodium falciparum [1]) [nM] | IC50 (Plasmodium falciparum [2]) [nM]
C[C@H]1[C@@H](CCCOP(C)(=O)OCCC[C@H]2O[C@@H]3O[C@@]4(C)CC[C@H]5[C@H](C)CC[C@@H]([C@H]2C)[C@@]35OO4)O[C@@H]2O[C@@]3(C)CC[C@H]4[C@H](C)CC[C@@H]1[C@@]24OO3 | 0.5 | –
C[C@H]1[C@@H](CCOP(C)(=O)OCC[C@H]2O[C@@H]3O[C@@]4(C)CC[C@H]5[C@H](C)CC[C@@H]([C@H]2C)[C@@]35OO4)O[C@@H]2O[C@@]3(C)CC[C@H]4[C@H](C)CC[C@@H]1[C@@]24OO3 | – | 0.04
C[C@H]1[C@@H](CCOP(C)(=O)OCC[C@H]2O[C@@H]3O[C@@]4(C)CC[C@H]5[C@H](C)CC[C@@H]([C@H]2C)[C@@]35O4)O[C@@H]2O[C@@]3(C)CC[C@H]4[C@H](C)CC[C@@H]1[C@@]24O3 | – | > 1000
